Reference: US10781184B2, “Substituted benzazinones as antibacterial compounds” (GlaxoSmithKline Intellectual Property Development Limited, priority 2015, dated 2020)

Assays:
Experiment in all cases: Minimum Inhibitory Concentration Assay (broth microdilution, CLSI)
P. aeruginosa PA01 = details: strain PA01, broth microdilution
Description: (§1) Methods for dilution Antimicrobial Susceptibility TestS for Bacteria that Grow Aerobically; Approved Standard-Ninth Edition; M7-A9, Vol. 32 No. 2, Clinical and Laboratory Standards Institute, Wayne, Pa.; January 2012.
(§2) Performance Standards for Antimicrobial Susceptibility Testing; Twenty-Second Informational Supplement; M100-S22 Vol. 32 No. 3; Clinical and Laboratory Standards Institute, Wayne, Pa., January 2012.
(§3) Broth microdilution was performed in accordance with the CLSI recommended procedures for aerobic bacteria [CLSI, 2012].
(§4) Comparator compound stock solutions were prepared as recommended by CLSI [CLSI, 2012]. The stock solutions of novel GSK compounds were prepared at 512 mcg/mL by dissolving the compounds in dimethyl sulfoxide (DMSO) and diluting 1:10 with sterile water. The 512 mcg/mL stock was further serially diluted in the recommended broth media for the organisms being tested. Final DMSO concentration in test wells was less than 1%.
(§5) Microtitre plates were prepared using the Microlab STAR™ (Hamilton Co., Reno, Nev.) to add media (50 μL) and the Microlab AT Plus system (Hamilton Co., Reno, Nev.) to serially dilute the compounds (final concentration range 0.125 to 128 mcg/mL) and to add inoculum. A positive growth control well containing medium and the test isolate was included on each microtitre plate. Ten microliters of the test medium from the positive growth control well was plated to determine the purity of each test isolate. A microtitre mirror reader (Cooke Instruments, Ltd., England) was used to assist in determining the microdilution MIC endpoints. The MIC was determined as the lowest concentration of compound that inhibited visible growth of the organism.

E. coli 7623 = details: strain 7623, broth microdilution
Description: as §1, §2, §3, §4, §5

K. pneumoniae 1161486 = details: strain 1161486, broth microdilution
Description: as §1, §2, §3, §4, §5

**Q.** What does the source list for `CN(C)Cc1ccc(-c2ccc3c(=O)n(CC[C@](C)(C(=O)NO)S(C)(=O)=O)cc(F)c3c2)c(F)c1`?
**A.** P. aeruginosa PA01 MIC (P. aeruginosa PA01): 2 µg/mL; E. coli 7623 MIC (E. coli 7623): 0.25 µg/mL; K. pneumoniae 1161486 MIC (K. pneumoniae 1161486): 0.25 µg/mL

Structures were worked out from names or drawings and are uncertain.
